The experiment has as its system A/Regensburg/D6/09, H1N1pdm09, RB1. To be noted: per os, 4 treatments every eight hours, PD-03250901 25 mg/kg.

With `O=C(NOC[C@H](O)CO)c1ccc(F)c(F)c1Nc1ccc(I)cc1F` [PD-03250901], the “virus titer in the lung” value is listed as “potent in reducing virus titer”.

(Values after patent publication US20190298669A1 (priority 2018, published 2019).)
